In patent publication US20240350522A1, “HYGROMYCIN A FOR TREATMENT OF DISEASES AND INFECTIONS” (FLIGHTPATH BIOSCIENCES, INC., priority 2021, published 2024):

Assays:
Test in all cases: Kirby-Bauer diffusion assay
Type in all cases: cell-based, Fusobacterium nucleatum
Conditions in all cases: linear regression
[1] = test system: F. nucleatum fusiforme
Procedure: (§1) Three representatives of 6 subspecies of Fusobacterium nucleatum (F. nucleatum) for a total of 18 strains were tested in the experiment. The sub species and strains are described in Table 2.
(§2) All strains were verified by 16S V3/V6 sequence analysis prior to use. The methods described herein were performed in an anaerobic chamber at 37° C. All media and plates were degassed prior to use.
(§3) Hygromycin A (Hyg A) discs were prepared by solubilizing Hyg A in distilled water and sterile filtered. Clindamycin was used as a positive control. Defined amounts of hygromycin A (40, 20, 10 or 5 micrograms), clindamycin (2 micrograms) or sterile distilled water were absorbed onto Kirby-Bauer discs in a biosafety cabinet.
(§4) An overnight culture was grown in Wilkins-Chalgren (WC) broth and back-diluted 1:10 in fresh broth. When an OD 600 reading reached 0.5, 300 μL of the log phase culture was plated onto WC agar plates. The plates were sectioned into quadrants and a Kirby-Bauer (KB) disc impregnated with a defined amount of hygromycin A was placed in each quadrant. Plates were prepared thus in triplicate and the four amounts of hygromycin A were 40, 20 10 and 5 micrograms. The same volume of culture was spread on fourth plate sectioned into six sections for three positive and three negative controls. KB discs with water served as negative controls and KB discs impregnated with 2 micrograms of clindamycin served as positive controls. […] Table 3, Table 4, Table 5, Table 6, Table 7, Table 8 show the mean size of zone inhibitions for each of the subspecies tested using increasing concentrations of hygromycin A where the standard error of mean is represented in parenthesis.
(§5) The amount of hygromycin A was plotted against the size of the zone of inhibition for each strain tested.

[2] = test system: F. nucleatum vincentii
Procedure: as §1, §2, §3, §4, §5

[3] = test system: F. nucleatum periodonticum
Procedure: as §1, §2, §3, §4, §5

[4] = test system: F. nucleatum animalis
Procedure: as §1, §2, §3, §4, §5

[5] = test system: F. nucleatum nucleatum
Procedure: as §1, §2, §3, §4, §5

[6] = test system: F. nucleatum polymorphum
Procedure: as §1, §2, §3, §4, §5

Structure (SMILES): CC(=O)[C@H]1O[C@@H](Oc2ccc(/C=C(\C)C(=O)N[C@@H]3[C@H](O)[C@@H](O)[C@H]4OCO[C@H]4[C@@H]3O)cc2O)[C@@H](O)[C@@H]1O [Hyg A, Hygromycin A]
- Slope, zone of inhibition (in mm) versus amount of hygromycin A ([1]; strain 203C15): 0.68
- Slope, zone of inhibition (in mm) versus amount of hygromycin A ([1]; strain 203L25): 0.49
- Slope, zone of inhibition (in mm) versus amount of hygromycin A ([1]; strain 203L30): 0.21
- Slope, zone of inhibition (in mm) versus amount of hygromycin A ([2]; strain 3/1/36A2): 0.24
- Slope, zone of inhibition (in mm) versus amount of hygromycin A ([2]; strain 215A9): 0
- Slope, zone of inhibition (in mm) versus amount of hygromycin A ([2]; strain CC53): 0.28
- Slope, zone of inhibition (in mm) versus amount of hygromycin A ([3]; strain 2_1_31 EAV015): 0.26
- Slope, zone of inhibition (in mm) versus amount of hygromycin A ([3]; strain 3_1_7B): 0.27
- Slope, zone of inhibition (in mm) versus amount of hygromycin A ([3]; strain 209B32): 0.35
- Slope, zone of inhibition (in mm) versus amount of hygromycin A ([4]; strain 7_1): 0.19
- Slope, zone of inhibition (in mm) versus amount of hygromycin A ([4]; strain 218A8): 0.65
- Slope, zone of inhibition (in mm) versus amount of hygromycin A ([4]; strain CRC 7_3JVN3C1): 0
- Slope, zone of inhibition (in mm) versus amount of hygromycin A ([5]; strain 2_3 FMU 1): 0.46
- Slope, zone of inhibition (in mm) versus amount of hygromycin A ([5]; strain 203L34): 0.49
- Slope, zone of inhibition (in mm) versus amount of hygromycin A ([5]; strain 25586): 0.38
- Slope, zone of inhibition (in mm) versus amount of hygromycin A ([6]; strain 13_3C EAV005): 0.29
- Slope, zone of inhibition (in mm) versus amount of hygromycin A ([6]; strain 203L28): 0.27
- Slope, zone of inhibition (in mm) versus amount of hygromycin A ([6]; strain 203L29): 0.23
